Measured values from several laboratories, pooled; numbers as filed in NIAID ChemDB.

Common to all: tests in culture; species: Mycobacterium avium intracellulare; measure: MIC

Lines come from different laboratories, so protocols vary.

| compound | strain or isolate | result |
|---|---|---|
| CCS/C(N)=N/N=C/c1ccc2cc(Cl)ccc2n1 | CNCTC D38/92 | 63 µM |
| CCCCSc1ncnc2ccccc12 | D 39/93 | 32 µM |
| CCCO/N=C1\[C@H](C)CC(C)(O)[C@H](O[C@@H]2O[C@H](C)C[C@H](N(C)C)[C@H]2O)[C@@H](C)[C@H](OC2C[C@@](C)(OC)[C@@H](O)[C@H](C)O2)[C@@H](C)C(=O)O[C@H](CC)[C@@](C)(O)[C@H](O)[C@H]1C | 20066 | 3.13 µg/mL |
| CC[C@H]1OC(=O)[C@H](C)[C@@H](O[C@H]2C[C@@](C)(OC)[C@@H](OC(C)=O)[C@H](C)O2)[C@H](C)[C@@H](O[C@@H]2O[C@H](C)C[C@H](N(C)C)[C@H]2O)C(C)(O)C[C@@H](C)/C(=N\OCCN(C)c2ccccc2)[C@H](C)[C@@H](O)[C@]1(C)O | 20066 (clarithromycin-susceptible) | 3.13 µg/mL |
| CCS/C(N)=N/N=C/c1nc2ccccc2n1C | CNCT D39/93 | >1000 µM |
| CC[C@H]1OC(=O)[C@H](C)[C@@H](OC2C[C@@](C)(OC)[C@@H](O)[C@H](C)O2)[C@H](C)[C@@H](O[C@@H]2O[C@H](C)C[C@H](N(C)C)[C@H]2O)C(C)(O)C[C@@H](C)/C(=N\OCCCC2CCCCC2)[C@H](C)[C@@H](O)[C@]1(C)O | 20066 (clarithromycin-susceptible) | 6.25 µg/mL |
| CCCCCCCS/C(N)=N/N=C/c1ccc2ccccc2n1 | CNCTC D38/92 | 32 µM |
| CC[C@H]1OC(=O)[C@H](C)[C@@H](OC2C[C@@](C)(OC)[C@@H](O)[C@H](C)O2)[C@H](C)[C@@H](O[C@@H]2O[C@H](C)C[C@H](N(C)C)[C@H]2O)C(C)(O)C[C@@H](C)/C(=N\OCCC2CCCCC2)[C@H](C)[C@@H](O)[C@]1(C)O | 20066 (clarithromycin-susceptible) | 6.25 µg/mL |
| CO[C@H]1/C=C/O[C@@]2(C)Oc3c(C)c(O)c4c(O)c(c5c(c4c3C2=O)NC2(CCN(CC(C)C)CC2)N=5)=NC(=O)/C(C)=C\C=C\[C@H](C)[C@H](O)[C@@H](C)[C@@H](O)[C@@H](C)[C@H](OC(C)=O)[C@@H]1C | 109 | 0.5 µg/mL |
| CC(C)CSc1ncnc2ccccc12 | D 39/93 | 125 µM |
| CC[C@H]1OC(=O)[C@H](C)[C@@H](OC2C[C@@](C)(OC)[C@@H](O)[C@H](C)O2)[C@H](C)[C@@H](O[C@@H]2O[C@H](C)C[C@H](N(C)C)[C@H]2O)C(C)(O)C[C@@H](C)/C(=N\OCCc2cccs2)[C@H](C)[C@@H](O)[C@]1(C)O | 20066 | 3.13 µg/mL |
| CC[C@H]1OC(=O)[C@H](C)[C@@H](O[C@H]2C[C@@](C)(OC)[C@@H](OC(C)=O)[C@H](C)O2)[C@H](C)[C@@H](O[C@@H]2O[C@H](C)C[C@H](N(C)C)[C@H]2OC(=O)NNCc2cccc(OC)c2)C(C)(O)C[C@@H](C)/C(=N\OCCCC2CCCCC2)[C@H](C)[C@@H](O)[C@]1(C)O | 20066 (clarithromycin-susceptible) | 0.39 µg/mL |
| CC[C@H]1OC(=O)[C@H](C)[C@@H](OC2C[C@@](C)(OC)[C@@H](O)[C@H](C)O2)[C@H](C)[C@@H](O[C@@H]2O[C@H](C)C[C@H](N(C)C)[C@H]2O)C(C)(O)C[C@@H](C)/C(=N\OCCc2ccccc2)[C@H](C)[C@@H](O)[C@]1(C)O | 20066 | 1.56 µg/mL |
| CC(C)Sc1ncnc2ccccc12 | D 38/92 | 63 µM |
| CCCCCCCCCCCCCCO/N=C1\[C@H](C)CC(C)(O)[C@H](O[C@@H]2O[C@H](C)C[C@H](N(C)C)[C@H]2O)[C@@H](C)[C@H](OC2C[C@@](C)(OC)[C@@H](O)[C@H](C)O2)[C@@H](C)C(=O)O[C@H](CC)[C@@](C)(O)[C@H](O)[C@H]1C | 20066 (clarithromycin-susceptible) | >50 µg/mL |
| CCS/C(N)=N/N=C/c1ccc2ccccc2n1.CCS/C(N)=N/N=C/c1ccc2ccccc2n1 | CNCTC D38/92 | 32 µM |
| C=CCSc1ncnc2ccccc12 | D 38/92 | 250 µM |
| CCO/N=C1\[C@H](C)CC(C)(O)[C@H](O[C@@H]2O[C@H](C)C[C@H](N(C)C)[C@H]2O)[C@@H](C)[C@H](OC2C[C@@](C)(OC)[C@@H](O)[C@H](C)O2)[C@@H](C)C(=O)O[C@H](CC)[C@@](C)(O)[C@H](O)[C@H]1C | 20066 | 6.25 µg/mL |
| CC(=O)NC[C@H]1CN(c2ccc(N3CCN(c4ccc([N+](=O)[O-])s4)CC3)c(F)c2)C(=O)O1 | ATCC 13950 | 16 µg/mL |
| CC[C@H]1OC(=O)[C@H](C)[C@@H](OC2C[C@@](C)(OC)[C@@H](O)[C@H](C)O2)[C@H](C)[C@@H](O[C@@H]2O[C@H](C)C[C@H](N(C)C)[C@H]2O)C(C)(O)C[C@@H](C)/C(=N\OCCCc2ccccc2)[C@H](C)[C@@H](O)[C@]1(C)O | 20066 | 1.56 µg/mL |
| CCS/C(N)=N/N=C/c1nc2ccccc2o1 | CNCTC D38/92 | 63 µM |
| CCCCCCSc1ncnc2ccccc12 | D 39/93 | 125 µM |
| CCCCCCS/C(N)=N/N=C/c1ccc2ccccc2n1 | CNCT D39/93 | 32 µM |
| CC[C@H]1OC(=O)[C@H](C)[C@@H](OC2C[C@@](C)(OC)[C@@H](O)[C@H](C)O2)[C@H](C)[C@@H](O[C@@H]2O[C@H](C)C[C@H](N(C)C)[C@H]2O)C(C)(O)C[C@@H](C)/C(=N\OCCCC2CCCCC2)[C@H](C)[C@@H](O)[C@]1(C)O | 20066 | 6.25 µg/mL |

3 of the rows above, restated:

compound	strain or isolate	result
CC[C@H]1OC(=O)[C@H](C)[C@@H](OC2C[C@@](C)(OC)[C@@H](O)[C@H](C)O2)[C@H](C)[C@@H](O[C@@H]2O[C@H](C)C[C@H](N(C)C)[C@H]2O)C(C)(O)C[C@@H](C)/C(=N\OCCC2CCCCC2)[C@H](C)[C@@H](O)[C@]1(C)O	20066 (clarithromycin-susceptible)	6.25 µg/mL
CC[C@H]1OC(=O)[C@H](C)[C@@H](OC2C[C@@](C)(OC)[C@@H](O)[C@H](C)O2)[C@H](C)[C@@H](O[C@@H]2O[C@H](C)C[C@H](N(C)C)[C@H]2O)C(C)(O)C[C@@H](C)/C(=N\OCCc2ccccc2)[C@H](C)[C@@H](O)[C@]1(C)O	20066	1.56 µg/mL
CCS/C(N)=N/N=C/c1nc2ccccc2n1C	CNCT D39/93	>1000 µM